Vif 1203: effect of single changes on growth against APOBEC3G

Reference: Langley et al. 2025, preprint, doi:10.1101/2025.10.20.683452.

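Pooled viruses with one designed change each in Vif went through two 72 h rounds in SupT1 cells expressing APOBEC3G. Frequencies after the second round, in three biological replicates, were compared with the merged pool after the first round. The overlap of vif with pol had been removed, so integrase is unaffected.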

Vif of 1203 (a subtype B primary isolate), residues 12-115; positions count from the first residue of the whole protein:
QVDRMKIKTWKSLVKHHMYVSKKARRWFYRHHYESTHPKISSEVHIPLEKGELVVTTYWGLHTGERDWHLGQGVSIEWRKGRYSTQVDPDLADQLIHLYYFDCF

Scale: log2 enrichment, wild type = 0; negative values mean that the variant was depleted.
Each entry names the wild-type residue, its position and the residue put in its place.
The median of three replicates is given.
Input reads are the counts in the merged round-one pool, before selection.
The scan is noisy: the rank correlation of replicates is about 0.4 to 0.65, and variants with under about 50 input reads tend to read too high.
Some changes are missing from the data or left out.
The authors note that some positive scores may be noise, and some enriched variants failed when tested singly.

For D113R (input reads 23) the result was 0.71.
For E60T (input reads 169) the result was -2.59.
For Q97H (input reads 394) the result was -2.06.
For H73Q (input reads 165) the result was -2.79.
For Y69Q (input reads 243) the result was -1.87.
For H108D (input reads 32) the result was -1.12.
For R90L (input reads 131) the result was -2.27.
For D78L (input reads 447) the result was -2.61.
For L24F (input reads 62) the result was 0.64.
For W89I (input reads 796) the result was -2.42.
For W89P (input reads 164) the result was -2.07.
For S52V (input reads 357) the result was -1.94.
For I57C (input reads 232) the result was -2.36.
For H56Y (input reads 22) the result was 0.94.
For K19G (input reads 39) the result was -1.61.
For P49D (input reads 328) the result was -3.10.
For F112I (input reads 298) the result was -1.27.
For Q105I (input reads 250) the result was -1.92.
For D104E (input reads 24) the result was 0.72.
For E76Y (input reads 19) the result was 1.38.
For H28S (input reads 282) the result was -1.97.
For K19F (input reads 1503) the result was 0.60.
For I107Y (input reads 176) the result was -1.39.
For W89S (input reads 241) the result was -2.42.
For I107V (input reads 91) the result was -2.21.
For C114Y (input reads 198) the result was -2.22.
For K17N (input reads 35) the result was -0.02.
For V66G (input reads 245) the result was -1.90.
For D99N (input reads 283) the result was -2.52.
For Q12W (input reads 196) the result was -1.49.
For D99H (input reads 42) the result was -0.68.
For Y94F (input reads 353) the result was -2.54.
For L106A (input reads 66) the result was -0.79.
For T96R (input reads 21) the result was -0.69.
For G62D (input reads 39) the result was -1.09.

Excerpt, the final 4 entries:

* Y94F (input reads 353) -> -2.54
* L106A (input reads 66) -> -0.79
* T96R (input reads 21) -> -0.69
* G62D (input reads 39) -> -1.09